Data on one molecule can be found in paper PMC11628845 (Acta Pharmaceutica Sinica. B, 2024).

The subject of the assay is ETV-resistant HBV (rtL180M + A181C + M204V). Nature of the assay: microbe, parasite or virus in culture. The note with it: Hepatitis B virus, Huh-7, read-out: HBV DNA IC50, rt180M181C204V. It counts as cell-based.

In general, IC50 refers to the concentration needed to halve the response being measured. With `COc1ccc(Cc2[nH]/c(=N/C(=O)C34CC5CC(CC(C5)C3)C4)n(C)c2Cc2ccc(OC)c(OC)c2)cc1` [11a, (Z)-N-(5-(3,4-Dimethoxybenzyl)-4-(4-methoxybenzyl)-1-methyl-1,3-dihydro-2H-imidazole-2-ylidene)adamantane-1-carboxamide], the IC50 came out at 13.7 µM.
